For 10 molecules, activity change, negative = inhibition results are on record in PubChem BioAssay AID603 (National Center for Advancing Translational Sciences (NCATS), 2007).

The list shows a part of the results, in another mix than the full data. Active and inactive are the calls of the source. The call rests on the fitted dose curve; in most records, active means well fitted curve in the direction sought with a large enough effect; inconclusive means small, poorly fitted or top-dose-only effect; inactive means flat fitted curve, though single readings scatter.
On the % scale 0 is the no-effect control and ±100 the full control effect.

This assay relates to DNA polymerase III holoenzyme (E. coli). The experiment in a line: qHTS Assay for Inhibitors of DNA Polymerase III Holoenzyme System. The settings on record: reconstituted DNA polymerase III holoenzyme replication, biochemical; at 57.1 µM (top of the series) unless noted. On the procedure: NIH Molecular Libraries Screening Centers Network [MLSCN]
NIH Chemical Genomics Center [NCGC]
Assay Provider: Charles McHenry, University of Colorado
E. coli DNA polymerase III holoenzyme complex was assayed for DNA production by fluorescent detection of the double-stranded DNA product with PicoGreen dye. The holoenzyme complex was reconstituted from the following purified protein components: DNA Polymerase III, beta subunit processivity factor, SSB single-stranded DNA binding protein, and Primase. Single-stranded, circular M13Gori was used as a substrate with dNTPs and NTPs also supplied to the substrate reagent. Compounds from the NCGC collection were incubated with the holoenzyme mixture for 15 min at room temperature to allow binding to occur, and then the reaction was started by the addition of substrate. After 30 min incubation at room temperature, PicoGreen solution containing EDTA was added to stop the reaction and to visualize the double-stranded DNA produced. Reaction progress was measured in a ViewLux CCD imager in fluorescence intensity mode by using 480 nm excitation and 540 nm emission filter set.
NCGC Assay Protocol Summary:
Buffer. 50 mM Hepes-KOH, pH 7.5, 5 % Glycerol, 0.02% NP40, 30 mM potassium;
glutamate, 1.5 mM Magnesium Acetate, 16 uM TCEP.
Buffer in columns 3 and 4 as negative control (no enzyme).
Substrate solution: 5 uM each dATP, dGTP, dCTP and TTP, 50 uM each GTP, CTP, UTP and 200 uM ATP, 1.4 nM M13gori (final concentrations).
Enzyme: 154 nM SSB, 2 nM Primase, 1 nM Beta, 0.35 nM Pol III (final concentrations).
PicoGreen/EDTA: 10 mM Tris-HCl, 10 mM EDTA, 5 uM PicoGreen (final concentrations).
Control titration: ChemBridge 5805060 (from 10 mM, then 1:2, in duplicate) was pin-transferred to upper half of column 2.
Three uL of holoenzyme mixture were dispensed to 1536-well Greiner black solid bottom plates. Compounds and controls (23 nL) were transferred via Kalypsys PinTool. The plates were incubated for 15 min at room temperature, and then 1 uL of substrate solution was added to start the reaction. After room temperature incubation for 35 minutes, 1 uL of PicoGreen solution was added to each well and the plates were read 480 nm excitation and 540 nm emission using ViewLux (Perkin-Elmer) High-throughput CCD imager and fluorescence protocol settings.
Keywords: NIH Roadmap, MLSCN, MLI, MLSMR, qHTS, NCGC, DNA Polymerase III, DNAPol3, DNAPoly3, DNA replication targets
(In qHTS, concentration-response curves come from the screen itself.)
Turning to `N/C(=N\O)c1c(N)no[n+]1[O-]`, the activity change, negative = inhibition is inactive: -4.2%.

As to `ClCCOP(OCCCl)OCCCl`, the activity change, negative = inhibition was inactive: -4.1%.

Consider `Fc1ccccc1NC1CCN(Cc2ccccc2)CC1`, for which the activity change, negative = inhibition was inactive: -4.6%.

In the case of `CCC(CO)(C(=O)OC1CN2CCC1CC2)c1ccccc1` (stereo not given), the activity change, negative = inhibition was inactive: 0.7%.

`CCOc1ncccc1C(=O)NCC1(N2CCOCC2)CCCCC1`: the activity change, negative = inhibition is inactive: -6%.

`O=C(O)C1(Nc2ccccc2)CCN(Cc2ccccc2)CC1`: the activity change, negative = inhibition is inactive: 1.5% [at 11.4 µM].

For `O=C(OC1CN2CCC1CC2)C1c2ccccc2Oc2ccccc21` (stereo not given), the activity change, negative = inhibition is inactive: -1.1%.

With `N#CC1(Nc2ccccc2)CCN(CCc2ccccc2)CC1`, the activity change, negative = inhibition was inactive: 1.4%.

As to `NC1CCCCC1.NP(=O)(O)N(CCCl)CCCl`, the activity change, negative = inhibition is inactive: -16.3% [at 11.4 µM].

On to `CCOP(=O)(Cl)Cl`, for which the activity change, negative = inhibition was inactive: 5.6%.
